A mixed list of measured activities; the numbers were collected in NIAID ChemDB.

Shared fields: host cell toxicity; read-out: CC50

Neighbouring rows are from separate reports. Blank or dashed fields: not listed here. CCn is the concentration with n% toxicity to the cells. a–b is a range or a potency band.

compound,cell line,method,result
Cc1cc2c(O[C@H]3O[C@H](CO)[C@@H](O)[C@H]3O)ccc(O)c2c(=O)o1,A-594,MTT,>40 µg/mL
COc1ccc(Cc2cc(C3CCN(C(=O)c4ccc5c(c4)CCO5)CC3)nc(N)n2)cc1,Jurkat cells (PMA-stimulated),,>5 µM
CCCCc1ccc(C(=O)N=Nc2[nH]c(N)c3c2ccc2ccccc23)nc1,L6,,34 nM
C=CCC1=CCCc2cc(OC)c(OC)cc21,HEK 293,,<7.5 µM
COc1ccc(Sc2cc(=O)n(C)c3ccccc23)cc1,Huh-Luc-Neo,,>100 µM
CCCOc1ccc(NC(=O)NOCCCCCC(=O)NO)cc1,NFF cells,sulforhodamine,11.9 µM
Cn1c(=O)cc(Sc2cc(Cl)ccc2Cl)c2ccccc21,Huh-Luc-Neo,,>100 µM
Cc1c(C(=O)Nc2ccc(F)c(C#N)c2)c(C)n(C)c1C(=O)C(=O)NC1CCC(O)CC1,HepG2,MTT,>30 µM
C/C(=C\Cn1cnc2c(=O)[nH]cnc21)CO,CCL18,,>100 µg/mL
C[C@]1(Cn2cc(COc3ccccn3)nn2)Cn2cc([N+](=O)[O-])nc2O1,J774,MTT,>40 µg/mL
CCOC(=O)CCCCCOc1cccc(CN(C(=O)c2ccc(-c3cccc(O)c3)cc2)C(C)C)c1,RAJI,,>20 µM
Cc1c(C(=O)Nc2ccc(F)c(C(=O)O)c2)c(C)n(C)c1C(=O)C(=O)NC(C)(C)C,HepG2,MTT,>30 µM
COc1cnc(-c2cncs2)c2[nH]cc(C(=O)C(=O)N3CCN(C(=O)c4ccccc4)CC3)c12,HeLa,trypan blue,>100 µM
C=CCCC(=O)NC[C@H](O)c1ccc2c(c1)OCO2,HepG2,,>20 µM
OC[C@@H](O)[C@@H]1NC[C@@H](O)[C@H]1O,T CELLS,,>160 µg/mL
Cc1cc(C)c(Nc2ccnc(Nc3ccc(C#N)cc3)n2)c(C)c1,PM1,MTT / absorbance,11 µM
COc1ccc(Cc2cc(C3CCN(C(C)=O)CC3)nc(N)n2)cc1,Jurkat cells (PMA-stimulated),,>5 µM
CC(C)Oc1ccnc(C(=O)N=Nc2[nH]c(N)c3ccccc23)c1,L6,,699 nM
CCCCNc1cccc2c(-c3ccnc(N4CCN(CCOC)CC4)n3)c(-c3ccc(F)cc3)nn12,VERO 76,,58 µM
C[C@]1(Cn2cc(COc3ccc(Br)cc3)nn2)Cn2cc([N+](=O)[O-])nc2O1,J774,MTT,>40 µg/mL
Nc1[nH]c(N=NC(=O)c2ccccn2)c2c(Sc3ccc(F)cc3)cccc12,L6,,102 nM
C[C@]1(Cn2cc(COc3ccc(OC(F)(F)F)cc3)nn2)Cn2cc([N+](=O)[O-])nc2O1,J774,MTT,>40 µg/mL
OC[C@H]1[C@H](O)[C@H](O)CN1Cc1ccccc1,T CELLS,,>100 µg/mL
CC(C)N(Cc1cccc(OCCCCCC(=O)OC(=O)O)c1)C(=O)c1ccc(-c2cccc(N(C)C)c2)cc1,BJ,,>20 µM
Cc1cc(-c2cn(C[C@@]3(C)Cn4cc([N+](=O)[O-])nc4O3)nn2)ccc1F,J774,MTT,>40 µg/mL
Nc1nc2c(ncn2C[C@H]2CC[C@@H](P(=O)(O)O)O2)c(=O)[nH]1,FLOW 2002,,>100 µg/mL
Nc1[nH]c(N=NC(=O)c2ccccn2)c2cccc(Sc3ccccc3F)c12,L6,,11 nM
COc1cc(Cc2cc(C3CCN(C(=O)c4ccc5c(c4)OCO5)CC3)nc(N)n2)cc(OC)c1,Jurkat cells (PMA-stimulated),,0.3 µM
Cn1c(=O)cc(Sc2ccc(N)cc2)c2ccccc21,Huh-Luc-Neo,,>100 µM
CC[C@@H](C)[C@@H]1NC(=O)[C@@H](CC(C)C)NC(=O)[C@H](CC(C)C)NC(=O)[C@H](Cc2c[nH]c3ccccc23)NC(=O)[C@@H](CCCN)NC(=O)[C@H](CO)NC1=O,Hep2G,luminescence,>100 µM
C[C@H](OCc1ccccc1)[C@@H](NC(=O)OC(C)(C)C)C(=O)Nc1ccc(Sc2cc(=O)n(C)c3ccccc23)cc1,Huh-Luc-Neo,,>100 µM
C[C@]1(Cn2cc(-c3ccc(C(F)(F)F)cc3)nn2)Cn2cc([N+](=O)[O-])nc2O1,J774,MTT,>40 µg/mL
CO[C@@H]1[C@H](N(C)C(=O)c2ccccc2)C[C@@]2(C)O[C@]1(C)n1c3ccccc3c3c4c(c5c6ccccc6n2c5c31)C(=O)NC4,J-Lat 9.2,fluorescence,>5 µM
Cc1cc(NC(=O)c2c(C)c(C(=O)C(=O)NC34CC(O)(C3)C4)n(C)c2C)ccc1F,HepG2,MTT,>30 µM
Cc1ccccc1OCc1cn(C[C@@]2(C)Cn3cc([N+](=O)[O-])nc3O2)nn1,J774,MTT,>40 µg/mL
Nc1nc2c(ncn2C/C=C(/CO)c2ccccc2)c(=O)[nH]1,CCL18,,>100 µg/mL
Nc1cccc2c(-c3ccnc(NC4CCCC4)n3)c(-c3ccc(F)cc3)nn12,VERO 76,,18 µM
COc1cnc(-n2cnc(C)n2)c2[nH]cc(C(=O)C(=O)N3CCN(C(=O)c4ccccc4)[C@H](C)C3)c12,HeLa,trypan blue,>100 µM
CN1C[C@H](O)[C@H](O)[C@H]1CO,T CELLS,,>100 µg/mL
C/C(=C\Cn1cnc2c(=O)[nH]c(N)nc21)CO,CCL18,,>100 µg/mL
Nc1ncnc2c1c(Br)cn2COCCO,GPE,,700 µg/mL
CC(=O)N1CC[C@@H](NC(=O)C(=O)c2c(C)c(C(=O)Nc3ccc(F)c(C)c3)c(C)n2C)[C@H](F)C1,HepG2,MTT,>30 µM
Cc1ccc(Sc2cc(=O)n(C)c3ccc(C)cc23)cc1,Huh-Luc-Neo,,10–100 µM
COc1cnc(-c2cnc(N)cn2)c2[nH]cc(C(=O)C(=O)N3CCN(C(=O)c4ccccc4)[C@H](C)C3)c12,HeLa,trypan blue,>100 µM
Cc1c(C(=O)Nc2ccc(F)c(-c3ncn[nH]3)c2)c(C)n(C)c1C(=O)C(=O)NC(C)(C)C,HepG2,MTT,>30 µM
Nc1ncnc2c1ncn2C[C@H]1CS[C@@H](P(=O)(O)O)O1,FLOW 2002,,>100 µg/mL
COc1cnc(-c2cnccn2)c2[nH]cc(C(=O)C(=O)N3CCN(C(=O)c4ccccn4)CC3)c12,HeLa,trypan blue,>100 µM
COC1(OC)CCC2(C)C(CCC3C2CCC2(COC(C)=O)C3CC(O)C23OC3C(OC(C)=O)C(C)C(C)C(C)(C)O)C1,HT-29,MTT,>50 µg/mL
Fc1ccc(-c2nn3c(NC4CCCC4)cccc3c2-c2ccnc(NCCCN3CCOCC3)n2)cc1,VERO 76,,15 µM
CC(C)c1ccc(NC(=O)NOCCCCCC(=O)NO)cc1,NFF cells,sulforhodamine,7.6 µM
COCCOc1cccc2c(N=NC(=O)c3ccccn3)[nH]c(N)c12,L6,,588 nM
Nc1nccc2c1ncn2[C@@H]1C=C(CO)[C@@H](O)[C@H]1O,U1,,10–25 µM
Cc1cc(NC(=O)c2c(C)c(C(=O)C(=O)NC3(C)CCC(O)CC3)n(C)c2-c2ccncc2)ccc1F,HepG2,MTT,>30 µM
C[C@@H]1C[C@@H](O)c2c(O[C@H]3O[C@H](CO)[C@@H](O)[C@H]3O)cccc2O1,SMMC-7721,MTT,>40 µg/mL
Cc1ccc2c(c1)c(Sc1ccc(Cl)cc1)cc(=O)n2C,Huh-Luc-Neo,,10–100 µM
C[C@]1(Cn2cc(-c3ccc(Oc4ccccc4)cc3)nn2)Cn2cc([N+](=O)[O-])nc2O1,J774,MTT,>40 µg/mL
CC(=O)C[C@H]1C[C@H]2[C@H]([C@@H]3c4[nH]c5ccccc5c4CCN13)[C@H](O)C13CC/C=C\CCCCN1CC21CC/C=C\CCCNC13,A-594,,2.5 µg/mL
Cc1cc2c(Sc3ccc(N)cc3)cc(=O)n(C)c2cc1C,Huh-Luc-Neo,,>100 µM
COC(=O)c1cc(-c2cccs2)nc2ccccc12,BJ,,>20 µM
CC1(C)C2CC=C3C(CC[C@@]4(C)C5C[C@](C)(C(=O)O)CC[C@]5(C)CC[C@]34C)[C@@]2(C)CCC1(O)O,A2058,,16.4 µM
CC(=O)OCC12CCC3C(CCC4CC(O)CCC43C)C1CC(O)C21OC1C(OC(C)=O)C(C)C(C)C(C)(C)OC(C)=O,HT-29,MTT,>50 µg/mL
CC1(C)CCC[C@]2(C)C3=C(C[C@H](C4=CCOC4=O)C3)C(=O)C[C@@H]12,P-388,absorbance,44.8 µM
Nc1[nH]c(N=NC(=O)c2ccccn2)c2cccc(Sc3ccc(F)cc3)c12,L6,,6 nM
CCCCNc1cccc2c(-c3ccnc(NCCN4CCOCC4)n3)c(-c3ccc(F)cc3)nn12,VERO 76,,>5 µM
CCN(CC)CCNc1cc(C)nc2c1ccc1c2ccc2c(NCCN(CC)CC)cc(C)nc21,Macrophage line RAW 264.7,MTT,0.00332 µM
Nc1nc(N)c2ncn(C[C@H]3CC[C@H](P(=O)(O)O)O3)c2n1,FLOW 2002,,>100 µg/mL
COc1ccc(Cc2cc(C3CCN(C(=O)c4ccc5c(c4)OCO5)CC3)nc(Cl)n2)cc1,Jurkat cells (PMA-stimulated),,0.7 µM
O=C(CCCCCONC(=O)Nc1ccc(-c2ccccc2)cc1)NO,NFF cells,sulforhodamine,7.9 µM
Cc1cc(NC(=O)c2c(C)c(C(=O)C(=O)N[C@@H]3CC[C@H](O)CC3(C)C)n(C)c2C)ccc1F,HepG2,MTT,>30 µM
CC(C)C[C@H]1NC(=O)[C@@H](Cc2ccc(Cl)cc2)NC(=O)[C@H](Cc2c[nH]c3ccccc23)NC(=O)[C@@H](CCCN)NC(=O)[C@H](CC(N)=O)NC(=O)[C@H](C(C)C)NC1=O,Hep2G,luminescence,>100 µM
Cn1c(=O)cc(Sc2ccc(Br)cc2)c2cc(Cl)ccc21,Huh-Luc-Neo,,>100 µM
OC/C(=C/Cn1cnc2c(Cl)ncnc21)c1ccccc1,CCL18,,>100 µg/mL
CCOc1ccnc(C(=O)N=Nc2[nH]c(N)c3ccccc23)c1,L6,,847 nM
CCOC(=O)CCCCCOc1cccc(CN(C(=O)c2ccc(-c3cccc(-c4nnc(C)o4)c3)cc2)C(C)C)c1,HEK 293,,>20 µM
Cc1c[nH]c(=O)n(C[C@H]2CS[C@H](P(=O)(O)O)O2)c1=O,FLOW 2002,,>100 µg/mL
COc1ccc(Nc2nccc(-c3c(-c4ccc(F)cc4)nn4c(NC5CCCC5)cccc34)n2)cc1,VERO 76,,>40 µM
CCC1(NC(=O)C(=O)c2c(C)c(C(=O)Nc3ccc(F)c(C)c3)c(C)n2C)CCN(S(C)(=O)=O)CC1,HepG2,MTT,>30 µM
CN(C)CCSc1cccc2c(N=NC(=O)c3ccccn3)[nH]c(N)c12,L6,,10 nM
Fc1ccc(Nc2nccc(-c3c(-c4ccc(F)cc4)nn4c(Nc5ccc(F)cc5)cccc34)n2)cc1,VERO 76,,>40 µM
CC(C)C[C@H]1NC(=O)[C@H](C)NC(=O)[C@H](Cc2c[nH]c3ccccc23)NC(=O)[C@@H](CCCN)NC(=O)[C@H](CC(N)=O)NC(=O)[C@H](C(C)C)NC1=O,Hep2G,luminescence,>100 µM
Nc1nc(Cl)c2ncn(C=C3C[C@H]3CO)c2n1,H-1,,>50 µM
C/C1=C\[C@H](O)C[C@@](C)(O)/C=C/[C@H](C(C)C)CC/C(C)=C/CCC1,Neurons,MTT,>10 µM
COc1ccc(Cc2cc(C3CCN(C(=O)c4ccc5ncoc5c4)CC3)nc(N)n2)cc1,Jurkat cells (PMA-stimulated),,>5 µM
CC(C)C[C@@H]1NC(=O)[C@H](Cc2c[nH]c3ccccc23)NC(=O)[C@@H](CCCN)NC(=O)[C@H](CC(N)=O)NC(=O)[C@H](C(C)C)NC(=O)[C@@H](Cc2ccc(Cl)cc2)NC1=O,Hep2G,luminescence,60 µM

Repeating the first 6 entries:

{"compound": "Cc1cc2c(O[C@H]3O[C@H](CO)[C@@H](O)[C@H]3O)ccc(O)c2c(=O)o1", "cell line": "A-594", "method": "MTT", "result": ">40 µg/mL"}
{"compound": "COc1ccc(Cc2cc(C3CCN(C(=O)c4ccc5c(c4)CCO5)CC3)nc(N)n2)cc1", "cell line": "Jurkat cells (PMA-stimulated)", "result": ">5 µM"}
{"compound": "CCCCc1ccc(C(=O)N=Nc2[nH]c(N)c3c2ccc2ccccc23)nc1", "cell line": "L6", "result": "34 nM"}
{"compound": "C=CCC1=CCCc2cc(OC)c(OC)cc21", "cell line": "HEK 293", "result": "<7.5 µM"}
{"compound": "COc1ccc(Sc2cc(=O)n(C)c3ccccc23)cc1", "cell line": "Huh-Luc-Neo", "result": ">100 µM"}
{"compound": "CCCOc1ccc(NC(=O)NOCCCCCC(=O)NO)cc1", "cell line": "NFF cells", "method": "sulforhodamine", "result": "11.9 µM"}